Measured values from paper PMC7535981, “RovC - a novel type of hexameric transcriptional activator promoting type VI secretion gene expression” (PLoS Pathogens, 2020).

Legend:
[1] = target: the molecule itself
[2] = target: the molecule itself; assay: SEC-MALS

Protein	stoichiometry N [1]	stoichiometry N [2]
RovC (regulator of virulence interconnected with the Csr system), wildtype (natural protein) MRKKLYNDFAWECLRRNPQYISDWELFMKNTLTNGGGIPDDSELIQSELDLNAEKKWGVMKYIDPYNSDPTNVFWSLKLSNRSVRVKLSNTGNVKGGYTWGDMSNLPGVKHQRLLMHDNTLCVKIFSQNGYFQLFIESADALKDDSNLYIYIPLNLESDVFAKNIELLQSIVNHKIEVECKEEQYLGLLKTIDDRKQGFSHRDIASEIFGKELVKNEWSADSWVRAKIRYRIKKANALINYGYLNFL	6	
RovC S219E/A220E mutant (natural protein) MRKKLYNDFAWECLRRNPQYISDWELFMKNTLTNGGGIPDDSELIQSELDLNAEKKWGVMKYIDPYNSDPTNVFWSLKLSNRSVRVKLSNTGNVKGGYTWGDMSNLPGVKHQRLLMHDNTLCVKIFSQNGYFQLFIESADALKDDSNLYIYIPLNLESDVFAKNIELLQSIVNHKIEVECKEEQYLGLLKTIDDRKQGFSHRDIASEIFGKELVKNEWEEDSWVRAKIRYRIKKANALINYGYLNFL		6
RovC R225E mutant (natural protein) MRKKLYNDFAWECLRRNPQYISDWELFMKNTLTNGGGIPDDSELIQSELDLNAEKKWGVMKYIDPYNSDPTNVFWSLKLSNRSVRVKLSNTGNVKGGYTWGDMSNLPGVKHQRLLMHDNTLCVKIFSQNGYFQLFIESADALKDDSNLYIYIPLNLESDVFAKNIELLQSIVNHKIEVECKEEQYLGLLKTIDDRKQGFSHRDIASEIFGKELVKNEWSADSWVEAKIRYRIKKANALINYGYLNFL		6
RovC R202E mutant (natural protein) MRKKLYNDFAWECLRRNPQYISDWELFMKNTLTNGGGIPDDSELIQSELDLNAEKKWGVMKYIDPYNSDPTNVFWSLKLSNRSVRVKLSNTGNVKGGYTWGDMSNLPGVKHQRLLMHDNTLCVKIFSQNGYFQLFIESADALKDDSNLYIYIPLNLESDVFAKNIELLQSIVNHKIEVECKEEQYLGLLKTIDDRKQGFSHEDIASEIFGKELVKNEWSADSWVRAKIRYRIKKANALINYGYLNFL		6

Read-outs that look alike come from different tables or passages of the source.
